Assay results reported in PMC4216219 (Journal of Medicinal Chemistry, 2014).

Experiments:
[1] = tested on: L. donovani MHOM/NP/02/BPK164/1; settings: antimony-resistant clinical isolate
[2] = tested on: L. donovani intracellular amastigotes; assay: L. donovani intracellular amastigote assay; settings: compared with compound 2
[3] = tested on: L. amazonensis intracellular amastigotes; assay: L. amazonensis intracellular amastigote assay; settings: compared with compound 2

## O.O.O.O.O.O.O.O.O.O=C([O-])[C@@H]1[O][Sb](=[O])([O][Sb]2(=[O])[O][C@H]([C@H](O)CO)[C@H](O)[C@H](C(=O)[O-])[O]2)[O][C@H]([C@H](O)CO)[C@@H]1O.[Na+].[Na+].[Na+] (stereo partly drawn) [sodium stibogluconate]
[1]
  EC50 BPK164/1: >60 micrograms of pentavalent antimony per milliliter

## OCCNc1nc(NCc2ccco2)c2ccccc2n1 [Compound 4, 2-(4-(Furan-2-ylmethylamino)quinazolin-2-ylamino)ethanol]
[2]
  lost potency against L. donovani by a factor: 10
[3]
  lost potency against L. amazonensis by a factor: > 13
